Data as given in article PMC8943039, “Neuron-recognizable characteristics of peptides recombined using a neuronal binding domain of botulinum neurotoxin” (Scientific Reports, 2022).

Biological target: EGFP-RBDʹ (EGFP-His6-linker-receptor binding domain of CDC297 BoNT/A1) (C. botulinum, UniProt A2I2R4 871-1296)

B1: GST-tagged luminal domain of synaptic vesicle glycoprotein 2C (domain or fragment)
chain: DVIKPLQSDEYALLTRNVERDKYANFTINFTMENQIHTGMEYDNGRFIGVKFKSVTFKDSVFKSCTFEDVTSVNTYFKNCTFIDTVFDNTDFEPYKFIDSEFKNCSFFHNKTGC
Kd: 5.45 µM | koff: 0.0287 s⁻¹ | kon: 5260 M⁻¹ s⁻¹
